The record followed here is ChEMBL document CHEMBL1828562, “Aryl H-phosphonates 17: (N-aryl)phosphoramidates of pyrimidine nucleoside analogues and their synthesis, selected properties, and anti-HIV activity” (J Med Chem, 2011).

Calls of active or inactive are those of the source. The rule behind the calls is not given here.

Assay [1] deals with Human immunodeficiency virus 1. In words: Antiviral activity against HIV1 infected in human CEM/TK- cells assessed as inhibition of virus-induced cytopathogenicity. In kind it is functional, organism-based.
The test system of assay [2] is Human immunodeficiency virus 1. In words: Antiviral activity against HIV1 infected in human CEM/TK+ cells assessed as inhibition of virus-induced cytopathogenicity. In kind it is functional, organism-based.
The target of assay [3] is Human immunodeficiency virus type 1 reverse transcriptase (Human immunodeficiency virus 1) (UniProt Q72547). In words: Inhibition of HIV1 recombinant reverse transcriptase at <= 3 uM preincubated for 5 mins measured after 1 hr by electrophoresis analysis. In short, it runs like this: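 Recombinant HIV-1 RT preincubated 5 min at 45 °C with compound in 50 mM Tris-HCl pH 8.3, 75 mM KCl, 3 mM MgCl2, 10 mM DTT. Started with dNTPs (50 μM final) and run 60 min at 45 °C. Products resolved on 12% denaturing PAGE and imaged by autoradiography. Fully extended product quantified.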

`O=c1ccn([C@H]2CC[C@@H](COP(=O)(O)Nc3ccccn3)O2)c(=O)[nH]1`: the inhibition entry in assay [1] is “inactive”.
On to `Cc1cn([C@H]2C[C@H](N=[N+]=[N-])[C@@H](COP(=O)(O)Nc3ccccn3)O2)c(=O)[nH]c1=O`, for which the inhibition entry in assay [2] was “Active”. In addition, the inhibition result in assay [3] and in assay [1] was “inactive” throughout.
